Results of unrelated studies side by side (data: NIAID ChemDB).

All rows: tests in culture; agent: Mycobacterium tuberculosis

MIC50, MIC90 and the like: level of inhibition, or share of isolates inhibited.

SMILES	strain or isolate	cells	endpoint	tested at	method	value
CC1(C)O[C@H]2[C@@H](O1)[C@@H](COCC(O)Cn1cnc([N+](=O)[O-])c1)O[C@@H]1OC(C)(C)O[C@@H]12	H37Rv		MIC		agar	1.56 µg/mL
N/C(=N/N=C/c1ccc(Br)cc1)c1ccccn1	1062 (THC-resistant)		MIC			64 µg/mL
Cc1c(CN2CCSCC2)cc(-c2ccccc2)n1-c1ccc(F)cc1			MIC			3 µg/mL
COc1ccc(/C=N/NC(=O)c2sc3ccc(Oc4ccccc4)cc3c2Cl)cc1	H37Rv		inhibition	6.25 µg/mL		0%
[O-][n+]1c2ccc(I)cc2[n+]([O-])c2c3ccccc3[nH]c21	H37Rv		MIC bound		resazurin	<6.25 µg/mL
CC(=O)c1ccc(N2CCN(C(=O)c3cc(Cl)cc(Cl)c3)CC2)cc1	Wild type without biotin		MIC50		turbidity	>50 µM
COCCN(CCOC)c1cc(=O)c2nc3c(oc2c1)c1c(=O)c2c(O)c(C)c4c(c23)=C(O)[C@@](C)(O/C=C/[C@H](OC)[C@@H](C)[C@@H](OC(C)=O)[C@H](C)[C@H](O)[C@H](C)[C@@H](O)[C@@H](C)/C=C/C=C(/C)C(=O)N1)O4	H37Rv		MIC			0.004 µg/mL
COc1cc2oc3c(C)c(=O)cc4oc(-c5ccccc5)cc(c2c2c1CC[C@@H](c1ccccc1)O2)c43	H37Rv		MIC		BACTEC	0.39 µg/mL
O=C(Cc1ccc(Cl)cc1)N1COC(c2sc3ccc(Oc4ccccc4)cc3c2Cl)=N1	H37Rv		inhibition	6.25 µg/mL		24%
CCN(CC)Cc1c2c(O)c3c(O)c(C)c4c(c3c1O)C(=O)[C@@](C)(O/C=C/[C@H](OC)[C@@H](C)[C@@H](OC(C)=O)[C@H](C)[C@H](O)[C@H](C)[C@@H](O)[C@@H](C)/C=C/C=C(/C)C(=O)N2)O4	H37Rv		MIC			0.2 µg/mL
COc1cc(C)c2c(=O)c3c(oc2c1)C(=O)c1c(O)c(OC)cc(O)c1C3=O	PAS-R		MIC			12.5 µg/mL
CC(=O)NC[C@H]1CN(c2ccc(N3CCOCC3)c(F)c2)C(=O)O1	10 isolates (isoniazid rifampin-resistant)		MIC90			0.5 µg/mL
CCCCCCCCCCCCCCCOC(COC[C@H]1O[C@@H]2OC(C)(C)O[C@@H]2[C@H]2OC(C)(C)O[C@H]21)C[N+]1=NC([N+](=O)[O-])N=C1	H37Rv		MIC		agar	6.25 µg/mL
CN1CCC2(CC1)C(=O)N(N1CCCCCC1)C(=O)N2c1ccccc1	H37Rv		inhibition	12.5 µg/mL	BACTEC	15%
CO[C@H]1/C=C/O[C@@]2(C)Oc3c(C)c(O)c4c(O)c(cc(N=NC(=N)N)c4c3C2=O)NC(=O)/C(C)=C\C=C\[C@H](C)[C@H](O)[C@@H](C)[C@@H](O)[C@@H](C)[C@H](O)[C@@H]1C	H37Rv		MIC			0.01 µg/mL
Cc1cc(S(=O)(=O)Nc2nc3[nH]ncc3c(=O)n2N)c(S)cc1Cl	H37Rv		inhibition	6.25 µg/mL	resazurin	40%
CSc1ccc(CC(=O)N2COC(c3sc4ccc(Oc5ccccc5)cc4c3Cl)=N2)cc1	H37Rv		inhibition	6.25 µg/mL		3%
CO/N=C/c1c2c(O)c3c(O)c(C)c4c(c3c1O)C(=O)[C@@](C)(O/C=C/[C@H](OC)[C@@H](C)[C@@H](OC(C)=O)[C@H](C)[C@H](O)[C@H](C)[C@@H](O)[C@@H](C)/C=C/C=C(/C)C(=O)N2)O4	H37Rv		MIC			0.05 µg/mL
O=C1OCc2cc(N3CCN(C(=O)c4cccc(Cl)c4)CC3)ccc21	BioA overexpression strain		MIC50		turbidity	>50 µM
CC1(C)O[C@H]2[C@@H](O1)[C@@H](COCC(O)C[N+]1=NC([N+](=O)[O-])N=C1)O[C@@H]1OC(C)(C)O[C@@H]12	H37Rv		MIC		agar	12.5 µg/mL
Cc1[nH]n(C(N)=S)c(=O)c1N=Nc1c(Cl)cccc1Cl	H37Rv		MIC bound		BACTEC	>12.8 µg/mL
O=C(c1cccc(Cl)c1)N1CCN(c2ccc([N+](=O)[O-])cc2)CC1	BioA underexpression strain		MIC90		turbidity	25.6 µM
CCOc1ccc(N2C(=O)CS/C2=N\c2ccccn2)cc1	H37Rv		MIC			≥25 µg/mL
CC1(C)O[C@H]2[C@@H](O1)[C@@H](C[N+]1=NC([N+](=O)[O-])N=C1)O[C@@H]1OC(C)(C)O[C@@H]12	H37Rv		MIC		agar	12.5 µg/mL
O=C(Cc1ccccc1[N+](=O)[O-])N1COC(c2sc3ccc(Oc4ccccc4)cc3c2Cl)=N1	H37Rv		inhibition	6.25 µg/mL		3%
CO[C@H]1/C=C/O[C@@]2(C)Oc3c(C)c(OC(C)=O)c4c(c3C2=O)C(=O)C=C(NC(=O)/C(C)=C\C=C\[C@H](C)[C@H](O)[C@@H](C)[C@@H](O)[C@@H](C)[C@H](OC(C)=O)[C@@H]1C)C4=O	KM-R		MIC			0.03 µg/mL
CO[C@H]1/C=C/O[C@@]2(C)Oc3c(C)c(O)c4c(O)c(c(/C=N/N5CCN(C)CC5)c(O)c4c3C2=O)NC(=O)/C(C)=C\C=C\[C@H](C)[C@H](O)[C@@H](C)[C@@H](O)[C@@H](C)[C@H](OC(C)=O)[C@@H]1C	H37Rv		MIC		agar	0.1 µg/mL
C=CCN1C(=O)/C(=C\c2ccncc2)S/C1=N\c1nc2ccccc2s1	H37Rv		MIC			≥25 µg/mL
Cc1ccc(/C=N/N=C(/N)c2ccccn2)c(C)c1	1454 (THC-resistant)		MIC			125 µg/mL
C=CCCN1CCN(c2cc(=O)c3nc4c(oc3c2)c2c(=O)c3c(O)c(C)c5c(c34)=C(O)[C@@](C)(O/C=C/[C@H](OC)[C@@H](C)[C@@H](OC(C)=O)[C@H](C)[C@H](O)[C@H](C)[C@@H](O)[C@@H](C)/C=C/C=C(/C)C(=O)N2)O5)CC1	H37Rv		MIC			0.017 µg/mL
O=C(NC1C(=O)C(Cl)C1c1cccc(Br)c1)c1sc2ccc(Oc3ccccc3)cc2c1Cl	H37Rv		inhibition	6.25 µg/mL		0%
O=[N+]([O-])c1ccc(/C=C(\c2ccc([N+](=O)[O-])o2)S(=O)(=O)c2ccccc2)cc1	H37Rv		MIC bound		BACTEC	>12.5 µg/mL
Cc1c(CN2CCN(C)CC2)cc(-c2ccccc2Cl)n1-c1ccccc1	103471		MIC			>16 µg/mL
COC(=O)c1c(OC)cc2cc3c(c(O)c2c1C)C(=O)[C@]1(O)C(=O)C=C(OC)[C@@H](O)[C@]1(O)C3=O	H37Rv		MIC bound		BACTEC	>12.5 µg/mL
CCCN(CCC)/N=C/c1c2c(O)c3c(O)c(C)c4c(c3c1O)C(=O)[C@@](C)(O/C=C/[C@H](OC)[C@@H](C)[C@@H](O)[C@H](C)[C@H](O)[C@H](C)[C@@H](O)[C@@H](C)/C=C/C=C(/C)C(=O)N2)O4	H37Rv		MIC			0.05 µg/mL
Cc1cnc(/C=N/NC(N)=S)cn1	H37Rv		MIC		BACTEC	≥12.5 µg/mL
CC1(C)O[C@H]2[C@@H](O1)[C@@H](Cn1cncc1[N+](=O)[O-])O[C@@H]1OC(C)(C)O[C@@H]12	H37Rv		MIC		agar	12.5 µg/mL
COc1ccccc1/C=N/N=C(/N)c1ccccn1	H37Rv		MIC			16 µg/mL
Cc1c(CN2CCSCC2)cc(-c2cccc3ccccc23)n1-c1ccccc1	103471		MIC			>16 µg/mL
CCOc1ccc(N2C(=O)/C(=C/c3ccc(OC)c(OC)c3)S/C2=N\c2ccccn2)cc1	H37Rv		MIC			≥25 µg/mL
O=C(NC1C(=O)C(Cl)C1c1ccc(O)cc1)c1sc2ccc(Oc3ccccc3)cc2c1Cl	H37Rv		inhibition	6.25 µg/mL		7%
FC(F)(F)c1[nH]nc(-c2cc3ccccc3o2)c1N=NN1CCOCC1	H37Rv		inhibition	12.5 µg/mL	BACTEC	98%
CC1(C)O[C@H]2[C@@H](O1)[C@@H](Cn1cnc([N+](=O)[O-])c1)O[C@@H]1OC(C)(C)O[C@@H]12	H37Rv		MIC		agar	>12.5 µg/mL
N/C(=N/N=C/c1cccc(Br)c1)c1ccccn1	H37Rv		MIC			64 µg/mL
Cc1nc([N+](=O)[O-])cn1CC(COC[C@H]1O[C@@H]2OC(C)(C)O[C@@H]2[C@H]2OC(C)(C)O[C@H]21)OCc1ccc(OC(F)(F)F)cc1	H37Rv		MIC		agar	3.13 µg/mL
N/C(=N/N=C/c1ccc(Cl)cc1)c1ccccn1	1814 (THC-resistant)		MIC			64 µg/mL
CC[CH2][Sn]([Br])([Br])[CH2]CC.c1cnc2c(c1)ccc1cccnc12	H37Rv		inhibition	12.5 µg/mL	BACTEC	99%
CC(=O)c1ccc(N2CCN(C(=O)c3ccc4c(c3)OCCCO4)CC2)cc1	Wild type without biotin		MIC50		turbidity	>50 µM
CSC(=S)N(C)NC(=O)c1cccc(C(=O)NN(C)C(=S)SC)n1	H37Rv		inhibition	6.25 µg/mL	resazurin	27%
CCOc1ccc(N2C(=O)/C(=C/c3cccc([N+](=O)[O-])c3)S/C2=N\c2ccccn2)cc1	H37Rv		MIC			≥25 µg/mL
O=C(N/N=C/c1ccc(Cl)cc1)c1sc2ccc(Oc3ccccc3)cc2c1Cl	H37Rv		inhibition	6.25 µg/mL		10%
C/C=C(/COC(C)=O)C(=O)OC1C=C(C=O)C(C)(C)C=C1C	H37Rv		inhibition	12.5 µg/mL	BACTEC	21%
Cc1c(CN2CCSCC2)cc(-c2ccccc2Cl)n1-c1ccccc1	103471		MIC			16 µg/mL
CC(C)N=c1cc2n(-c3ccc(Cl)cc3)c3ccccc3nc-2cc1Nc1ccc(Cl)cc1	H37Rv		MIC			1.3 µg/mL
CC1(C)C(=O)N(c2ccccc2)C(=O)N1c1nc2ccccc2[nH]1	H37Rv		inhibition	12.5 µg/mL	BACTEC	-1%
CCOc1ccc(N2C(=O)/C(=C/c3ccc4c(c3)OCO4)S/C2=N\c2ccccn2)cc1	H37Rv		MIC			≥25 µg/mL
CC(=O)N[C@H]1[C@@H](O[C@@H]2O[C@H](C[C@@H](O)[C@H]3O[C@@H](n4ccc(=O)[nH]c4=O)[C@H](O)[C@@H]3O)[C@H](O)[C@H](O)[C@H]2NC(=O)/C=C/CC(C)C)O[C@H](CO)[C@@H](O)[C@@H]1O	H37Rv	VERO	MIC			3.1 µg/mL
Cc1c(CN2CCN(C)CC2)cc(-c2ccccc2)n1-c1ccc(F)cc1			MIC			1 µg/mL
CC(=O)c1ccc(N2CCN(C(=O)c3cncc(Cl)c3)CC2)cc1	BioA underexpression strain		MIC50		turbidity	>50 µM
OC(N1CSC(=S)N(C(O)C(Cl)(Cl)Cl)C1)C(Cl)(Cl)Cl	H37Rv		inhibition	12.5 µg/mL	BACTEC	15%
N/C(=N\N=C\c1ccc([N+](=O)[O-])cc1)c1ccccn1	H37Rv		MIC			500 µg/mL
C=CCN1C(=O)/C(=C/c2ccccc2)S/C1=N\c1nc2ccccc2s1	H37Rv		MIC			≥25 µg/mL
COc1cc(/C=N/NC(=O)c2sc3ccc(Oc4ccccc4)cc3c2Cl)ccc1O	H37Rv		inhibition	6.25 µg/mL		7%
COC(=O)NC1(C(=O)O)CCCC1	H37Rv		inhibition	6.25 µg/mL	resazurin	17%
CO[C@H]1/C=C/O[C@@]2(C)Oc3c(C)c(O)c4c(=O)c(c5oc6cc(N(C)CCN(C)C)cc(=O)c6nc5c4c3=C2O)NC(=O)/C(C)=C\C=C\[C@H](C)[C@H](O)[C@@H](C)[C@@H](O)[C@@H](C)[C@H](OC(C)=O)[C@@H]1C	H37Rv		MIC			0.07 µg/mL
O=C1Nc2ccccc2C12C=C(c1ccccc1)Nc1ccc(F)cc1S2			inhibition	12.5 µg/mL		98%
CCOc1ccc(N2C(=O)/C(=C/c3cccs3)S/C2=N\c2ccccn2)cc1	H37Rv		MIC			≥25 µg/mL
O=C1OC(c2ccccc2)=N/C1=C\c1c(-c2ccccc2)c(-c2ccccc2)c2n1CCC2	H37Rv		inhibition	12.5 µg/mL	BACTEC	-16%
N#Cc1ccc(/C=N/N=C(\N)c2ccccn2)cc1	H37Rv		MIC			500 µg/mL
Cc1ccc2nc3cc(C)c(=O)cc-3sc2c1	H37Rv		MIC		resazurin	3.13 µg/mL
N/C(=N/N=C/c1ccccc1Cl)c1ccccn1	1062 (THC-resistant)		MIC			16 µg/mL

For reference, 6 entries again:

SMILES	strain or isolate	cells	endpoint	tested at	method	value
CCOc1ccc(N2C(=O)/C(=C/c3cccs3)S/C2=N\c2ccccn2)cc1	H37Rv		MIC			≥25 µg/mL
N/C(=N/N=C/c1ccc(Br)cc1)c1ccccn1	1062 (THC-resistant)		MIC			64 µg/mL
CC(=O)NC[C@H]1CN(c2ccc(N3CCOCC3)c(F)c2)C(=O)O1	10 isolates (isoniazid rifampin-resistant)		MIC90			0.5 µg/mL
CCOc1ccc(N2C(=O)/C(=C/c3ccc4c(c3)OCO4)S/C2=N\c2ccccn2)cc1	H37Rv		MIC			≥25 µg/mL
O=C1Nc2ccccc2C12C=C(c1ccccc1)Nc1ccc(F)cc1S2			inhibition	12.5 µg/mL		98%
CC1(C)O[C@H]2[C@@H](O1)[C@@H](Cn1cncc1[N+](=O)[O-])O[C@@H]1OC(C)(C)O[C@@H]12	H37Rv		MIC		agar	12.5 µg/mL

MIC bound comes from a single tested concentration. Rows are shuffled and stem from different studies. An empty or dashed field is not shown. Percent inhibition refers to the dose given; in toxicity tests it is the harm to the cells.